Data taken from patent publication US11903936B2, “Anti-malarial agents” (THE BOARD OF REGENTS OF THE UNIVERSITY OF TEXAS SYSTEM, priority 2019, dated 2024).

Experiment: metabolic stability, Human Clint

In the case of `Cc1c(C2(c3ccc(C(F)(F)F)nc3)CC2)c[nH]c1C(=O)NC(C)c1cc(C(N)=O)[nH]n1` (single isomer, unassigned), the “Human Clint” value is reported as “particularly metabolically stable and <7 μL/min/mg protein”.

The source holds more than one record for some entries. Only these are listed. There may be further records. Values given together do not match, cause unknown; some may be repeats, others may stem from another dose, organism or construct than stated.
